Measurements: PubChem BioAssay AID1259415 (National Center for Advancing Translational Sciences (NCATS), 2018)
The list shows a part of the results, in another mix than the full data. Results filed as inconclusive are left out. Calls of active or inactive are those of the source. No stated cut-off is given here; in the data, active means activity change below about -60%; inconclusive means no clear call, values can overlap the other calls; inactive means above about -39%.

Test: qHTS Assay for inhibitors of the human cytomegalovirus (HCMV)
Settings: HFF cells, HCMV-luciferase reporter, 72 h; at 57.5 µM; hits give low values
Description: NCGC Assay Overview: Infection with human cytomegalovirus (HCMV) continues to pose significant threats for pregnant women and immunocompromised hosts. HCMV causes serious morbidity and mortality in transplant recipients, and congenital HCMV is the leading infectious cause of mental retardation and deafness in children. In the 1990s, the annual costs associated with the disease burden of congenital CMV were estimated at around $2 billion. A HCMV vaccine is not available yet and HCMV therapies result in intolerable side effects and emergence of drug resistant viruses. […] Towards this goal we have developed and characterized a luciferase HCMV reporter that was initially used in 96 well plates and then optimized to 1536-well plates for utilization in screening of the MLSMR collection, the NGCG diversity collection and the NCGC Pharmaceutical Collection of approved and investigational drugs.
NCGC Assay Protocol Summary:
This is a cell-based assay for HCMV inhibition in HFFs cells. The screening used 2 compound doses and the HCMV-luciferase at MOI of 1 PFU/cell. Cells were treated and infected with HCMV. At 72 h post infection cell lysates were collected and luciferase activity was determined using the Glomax-Multi + Detection System (Promega, Madison, WI). Data were normalized to the controls for basal activity (buffer only) and known HCMV inhibitors Salinmoycin.
1536-well assay protocol for the assay:
(1) Add 3 ul CMV/HFF cell culture. 1000 cells/well in DMEM nirmal media.
(2) Incubate 16 hr at 37C.
(3) Add 23 nl control compound, 10uM of Salinomycin.
(4) Add 23 nl compounds in DMSO solution.
(5) Add 3 ul CMV suspension. Final 1 puf/ul, Virus stock 2000pfu/ul
(6) Incubate 72 hrs at 37C.
(7) Add 4 ul OneGlo Luc Reagent.
(8) Incubate 5 min at room temperature.
On the % scale 0 is the no-effect control and ±100 the full control effect.

SMILES | activity change, negative = inhibition
O=C(OC1CN2CCC1CC2)c1ccccc1 (stereo unspecified) | inactive: -33.3%
CCC(=O)N1C2C3N(C(=O)CC)C1C1N(C(=O)CC)C(C(N1C(=O)CC)N3C(=O)CC)N2C(=O)CC | inactive: -11.4%
COC(=O)c1cc2c(s1)N=C(c1ccccc1)N(C)P2(=O)N1CCOCC1 (stereo unspecified) | inactive: -24.9%
Cc1ccc(OP(=O)(Nc2ccccn2)Oc2ccc(C)cc2)cc1 | active: -78.1%
Cc1ccccc1OP(=O)(Nc1ccccn1)Oc1ccccc1C | inactive: -33%
CC(NC(=O)COC(=O)C(O)(c1ccccc1)c1ccccc1)c1ccccc1 (stereo unspecified) | inactive: 1.11%
CN(C)C(=O)Oc1noc2ccccc12 | inactive: -21.8%
O=c1c2cc([N+](=O)[O-])ccc2[nH]c2c([N+](=O)[O-])cc([N+](=O)[O-])cc12 | inactive: -22.9%
c1ccc(-c2nn[nH]n2)c(-c2nn[nH]n2)c1 | inactive: -22.9%
Cc1ccc(NP(=O)(Oc2cccc(C)c2)Oc2cccc(C)c2)nc1 | inactive: -14.6%
CCNC(=S)/N=C(\N)N[N+](=O)[O-] | inactive: -0.597%
O=C(NC1CCS(=O)(=O)C1)NP(=S)(Oc1ccccc1)Oc1ccccc1 (stereo unspecified) | inactive: -4.15%
O=P1(N(CCCl)CCCl)OCCC2CCCCN21 (stereo unspecified) | inactive: -19.6%
Cc1ccccc1CN(C)C(=O)COC(=O)C(O)(c1ccccc1)c1ccccc1 | inactive: 47.1%
C[C@@H]1C=CCP(=O)(Oc2ccccc2)O1 (stereo partly specified) | inactive: -21.6%
C[C@H]1OP(=O)(Oc2ccccc2)C[C@@H]2O[C@@H]21 (stereo partly specified) | inactive: 1.74%
CC(=O)c1ccc(N2CC2c2ccncc2)cc1 (stereo unspecified) | inactive: 28%
COC(=O)C1(C)COP(=O)(NCc2ccccc2)OC1 (stereo unspecified) | inactive: -0.501%
CC(=O)Nc1ccc([As](=O)(O)O)c(O)c1 | inactive: 3.1%
CC(=O)Nc1ccc(Oc2c([N+](=O)[O-])cc([N+](=O)[O-])cc2[N+](=O)[O-])cc1 | inactive: 16.9%
O=P1(Nc2nc3ccc(Cl)cc3s2)COc2ccccc2O1 (stereo unspecified) | inactive: 88.3%
CCOc1ccc(C2=NCC(CBr)S2)cc1 (stereo unspecified) | inactive: 4.35%
CC(C)(C)C(=O)NC(Sc1ccccc1)C(Cl)(Cl)Cl (stereo unspecified) | inactive: -14.3%
CCc1cc(O)c([N+](=O)[O-])c(C)c1[N+](=O)[O-] | inactive: 15.3%
CC(C)C(=O)NC(Sc1ccccc1)C(Cl)(Cl)Cl (stereo unspecified) | inactive: 18.6%
O=P(Nc1nccs1)(c1ccccc1)c1ccccc1 | inactive: 11.8%

SMILES | activity change, negative = inhibition
c1nnnn1CCn1cnnn1 | inactive: -7.89%
O=C(OC1CN2CCC1CC2)c1cccc(Cl)c1 (stereo unspecified) | inactive: 19.9%
C/C(N)=N\P(=O)(OCc1ccccc1)OCc1ccccc1 | inactive: -12.9%
Nc1ccc([As](=O)(O)c2ccc([N+](=O)[O-])cc2)cc1 | inactive: 0%
C(Cc1nn[nH]n1)Cc1nn[nH]n1 | inactive: 6.52%
O=P(Nc1ccccn1)(c1ccc(Br)cc1)c1ccc(Br)cc1 | inactive: -6.41%
CN(C)C1(CNC(=O)c2ccc(Cl)c(S(N)(=O)=O)c2)CCCCC1 | inactive: 0.953%
Nc1ccc(CCCCOc2ccccc2)cc1 | inactive: 6.03%
COc1ccc(N)c([N+](=O)[O-])c1[N+](=O)[O-] | inactive: -4.13%
O=P(Nc1nc2ccccc2s1)(c1ccccc1)c1ccccc1 | inactive: 0%
C[C@H]1OP(=O)(Oc2ccccc2)[C@H](O)[C@H](O)[C@H]1N=[N+]=[N-] (stereo partly specified) | inactive: 4.25%
O=[N+]([O-])c1ncn(CCn2ncnc2[N+](=O)[O-])n1 | inactive: 8.73%
CC(C)(C)C(=O)NC(Sc1ccncn1)C(Cl)(Cl)Cl (stereo unspecified) | inactive: 34.6%
O=C(O)CNc1ccc([As](=O)(O)O)cc1 | inactive: -30%
O=[N+]([O-])c1cccc(NC2=NCC(CBr)S2)c1 (stereo unspecified) | inactive: 8.69%
COC(=O)C1(C)COP(=O)(Nc2ccccc2)OC1 (stereo unspecified) | inactive: 21.8%
O=P1(N(CCCl)CCCl)OCCCS1 (stereo unspecified) | inactive: 3.97%
O=C(Nc1cc([As](=O)(O)O)ccc1O)c1ccccc1 | active: -101%
CCN(/C(=N/P(=O)(N1CCOCC1)N1CCOCC1)N1CCOCC1)c1ccc(OC)cc1 | inactive: -0.947%
Nc1ccc([As](=O)(O)c2ccc(N)cc2)cc1 | inactive: -17.8%
C[N+]1=C2C=CC=CC=C2SC12C([N+](=O)[O-])=CC([N+](=O)[O-])=C[C-]2[N+](=O)[O-] (stereo unspecified) | active: -100%
c1cc(-c2nn[nH]n2)ccc1-c1nn[nH]n1 | inactive: -36.5%
CC1CCN(C(=O)Oc2c(Cl)cc(Cl)c3cccnc23)CC1 | inactive: 7.7%
CC(C)=N/N=C(\N)N[N+](=O)[O-] | inactive: 3.23%
CC(C)c1nc(Nc2ccccc2)n(P(=O)(N(C)C)N(C)C)n1 | inactive: 49.7%
CN(C)C(=O)OCCc1n(C)cc[n+]1C | inactive: 36.5%

SMILES | activity change, negative = inhibition
COc1ccc(C2=NCC(CBr)S2)cc1 (stereo unspecified) | inactive: 9.09%
CCc1nc2c(n1)c1c(non1O)c1c2no[n+]1[O-] | active: -68.1%
O=[N+]([O-])c1cc([N+](=O)[O-])c(CCNc2ccccc2)c([N+](=O)[O-])c1 | inactive: -25.9%
O=[N+]([O-])c1cccc2n[nH]nc12 | inactive: 74.2%
CC(=O)N1C2C3N(C(C)=O)C1C1N(C(C)=O)C(C(N1C(C)=O)N3C(C)=O)N2C(C)=O | inactive: -4.82%
Oc1ccccc1CNc1ccccn1 | inactive: -23.8%
O=C(NC(Sc1ccncn1)C(Cl)(Cl)Cl)c1ccccc1 (stereo unspecified) | inactive: 75.5%
CC(C)CC(=O)NC(Sc1ccc(Cl)cc1)C(Cl)(Cl)Cl (stereo unspecified) | inactive: 45.5%
Nc1cc(N)c2nonc2c1[N+](=O)[O-] | inactive: 4.86%
CN(C(=O)Cc1ccc(Cl)c(Cl)c1)[C@H]1CCCC[C@H]1N1CCCC1 | inactive: -1.22%
Cc1ccc(N/C(=N/P(=O)(N2CCOCC2)N2CCOCC2)N2CCOCC2)cc1 | inactive: -1.89%
NC(=O)c1cc([N+](=O)[O-])cc([N+](=O)[O-])c1N | inactive: -15.1%
Clc1ccc(Cl)c(NC2=NCC(CBr)S2)c1 (stereo unspecified) | inactive: -1.78%
CN1CCCC(OC(=O)C(c2ccccc2)c2ccccc2)C1 (stereo unspecified) | inactive: 49.3%
COc1ccccc1OP(=O)(Nc1ccc(C)cn1)Oc1ccccc1OC | inactive: -24.9%
Cc1ccc(OP(=O)(Nc2nccs2)Oc2ccc(C)cc2)cc1 | inactive: -18.5%
Nc1cccc2ccc([As](=O)(O)O)cc12 | active: -86.5%
CN(C(=O)Cc1ccccc1)C1CC[C@@]2(CCCO2)C[C@@H]1N1CCCC1 (stereo partly specified) | inactive: -22.1%
CCN(N=Nc1nonc1N)c1nonc1N | inactive: -18.8%
CN(C)P(=O)(N(C)C)n1c(Nc2ccccc2)nnc1-c1ccccc1 | inactive: -0.348%
O=P(Nc1nc2ccc(Cl)cc2s1)(c1ccccc1)c1ccccc1 | inactive: 27.2%
O=C(O)c1ccccc1[As](=O)(O)O | inactive: -30.4%
CC(=O)Nc1ccc([As](=O)(O)O)cc1 | inactive: 4.07%
CCCC1OP(N)(=O)OCC1CC (stereo unspecified) | inactive: 15.2%
CCn1c(=O)n(C2CCN(CC3CCCCCCC3)C[C@H]2CO)c2ccccc21 (stereo partly specified) | inactive: -11.9%
CCOP(=O)(Nc1ccccc1)OCC | inactive: -32.9%

SMILES | activity change, negative = inhibition
Cc1cc(SC(NC(=O)c2ccc(F)cc2)C(Cl)(Cl)Cl)ncn1 (stereo unspecified) | inactive: 13.8%
Cc1ccc(NP(=O)(Oc2ccccc2F)Oc2ccccc2F)nc1 | inactive: 21.4%
CN(C(=O)Cc1ccc(Cl)c(Cl)c1)[C@H]1CCCC[C@@H]1N1CCCC1 | inactive: 70.4%
ClCCSc1nnc(-c2cccnc2)o1 | inactive: 17.8%
CC(C)c1ccc(OP(=O)(Nc2ccccn2)Oc2ccccc2F)cc1 (stereo unspecified) | inactive: 0.489%
COC(=O)C1(C)COP(=O)(N2CCCCCC2)OC1 (stereo unspecified) | inactive: 15.5%
O=C(OC1CN2CCC1CC2)c1cccc2[nH]cnc12 (stereo unspecified) | inactive: 56.3%
CCN(CC)C(=S)SC(NC=O)C(Cl)(Cl)Cl (stereo unspecified) | inactive: -7.33%
C[As](=O)(O)c1cccc(C(=O)O)c1 | inactive: -10.9%
COc1cc(C(=O)NCC2(N3CCOCC3)CCCCC2)ccc1OCC(C)C | inactive: -18.2%
O=[N+]([O-])c1ccc(-c2cc([N+](=O)[O-])c(O)c([N+](=O)[O-])c2)cc1 | inactive: -30.3%
[N-]=[N+]=NC1CCCCC1NC(=O)c1cc([N+](=O)[O-])cc([N+](=O)[O-])c1 (stereo unspecified) | inactive: 38.3%
Cc1ccc(OP(=O)(Nc2ccc([N+](=O)[O-])cn2)Oc2ccc(C)cc2)cc1 | inactive: -35.6%
Cc1ccc2nc3c(c(C)c2c1)CC(C(Cl)Cl)S3 (stereo unspecified) | inactive: 32%
O=[N+]([O-])c1cc(Oc2ccc([N+](=O)[O-])cc2C(F)(F)F)cc([N+](=O)[O-])c1 | inactive: -12.5%
COc1ccc(N/C(=N/P(=O)(N2CCOCC2)N2CCOCC2)N2CCOCC2)cc1 | inactive: 23.3%
Cc1c2c(nc3ccccc13)SC(C(Cl)Cl)C2 (stereo unspecified) | inactive: -25.9%
O=C(OC1CN2CCC1CC2)C12CC3CC(CC(C3)C1)C2 (stereo unspecified) | inactive: 5.06%
Cc1cc(=O)[nH]c(N[N+](=O)[O-])n1 | inactive: -37.9%
O=P1(N(CCCl)CCCl)Nc2ccccc2N1 | inactive: 94.2%
O=P1(N(CCCl)CCCl)OCCCN1CCCl (stereo unspecified) | inactive: -4.11%
COc1ccc2nc(NP(=O)(c3ccccc3)c3ccccc3)sc2c1 | inactive: -6.3%
COc1cc(I)ccc1[As](=O)(O)O | active: -61.6%
